Reference: ChEMBL document CHEMBL1770114, “Triamino pyrimidines and pyridines as histamine H(4) receptor modulators” (Bioorg Med Chem Lett, 2011)

By UniProt entry, the sequences of proteins in these tests, tags left out. Where a name states a change or a piece, a line headed by the entry shows the natural chain unless it says otherwise.
UniProt Q9H3N8: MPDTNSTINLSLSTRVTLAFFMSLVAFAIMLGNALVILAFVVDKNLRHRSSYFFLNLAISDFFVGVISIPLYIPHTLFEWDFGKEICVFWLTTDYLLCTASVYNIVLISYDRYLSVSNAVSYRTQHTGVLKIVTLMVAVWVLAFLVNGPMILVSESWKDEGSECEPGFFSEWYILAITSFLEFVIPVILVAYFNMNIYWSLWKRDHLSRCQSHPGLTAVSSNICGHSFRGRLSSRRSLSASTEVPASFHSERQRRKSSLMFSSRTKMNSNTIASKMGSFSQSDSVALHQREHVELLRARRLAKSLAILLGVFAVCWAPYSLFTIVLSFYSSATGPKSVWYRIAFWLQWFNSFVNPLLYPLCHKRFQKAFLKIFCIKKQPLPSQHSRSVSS

Tests used:
[1] = biological target: T1, Histamine H4 receptor (Homo sapiens, UniProt Q9H3N8); experiment: Agonist activity at human histamine H4 receptor expressed in human SK-N-MC cells assessed as effect on forskolin-induced cAMP accumulation after 6 hrs; assay type: functional, cell-based
In short: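 SK-N-MC cells with CRE-driven β-galactosidase reporter. Compound added to medium for 10 min at room temperature, then forskolin (5 µM final), 6 h at 37 °C. Chlorophenol red β-D-galactopyranoside substrate read at A570. α set against histamine (full agonist) = 1.0.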

[2] = biological target: T1, Histamine H4 receptor; experiment: Displacement of [3H]histamine from human histamine H4 receptor
[3] = biological target: T1, Histamine H4 receptor; experiment: Antagonist activity at human histamine H4 receptor expressed in human SK-N-MC cells assessed as inhibition of forskolin-stimulated cAMP accumulation after 6 hrs; assay type: functional, cell-based; details: read-out: pA2 (converted)
In short: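 pA2 format on SK-N-MC cells carrying a CRE-controlled β-galactosidase reporter. Cells were preincubated with compound for 10 min, then with histamine agonist for 10 min, then forskolin was added, followed by 6 h at 37 °C. Lysis used phosphate/Mg/Mn buffer at pH 8 with Triton X-100 and β-mercaptoethanol. Chlorophenol red β-D-galactopyranoside turnover was read at 570 nm.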

EC50 [1]: > 10000 nM | Ki [2]: 4 nM | Kb [3]: 0.501 nM
SMILES: CN[C@@H]1CCN(c2cc(NCC(C)C)nc(N)n2)C1
